The test system of the series is pseudovirus HIV-1 HXB2. Type of series: cell-based. As to conditions: selectivity index SI=CC50/IC50, TZM-bl cells.
As for `Cc1cc(-c2ccc(C(F)(F)F)cn2)[nH]c1C(=O)NC(C)(CN)c1nc(CO)cs1` (racemic) [Compound 31, N-(1-Amino-2-(4-(hydroxymethyl)thiazol-2-yl)propan-2-yl)-3-methyl-5-(5-(trifluoromethyl)-pyridin-2-yl)-1H-pyrrole-2-carboxamide], the SI was greater than 26.
The same measure for `CC(CN)(NC(=O)c1ccc(-c2ccc(C(F)(F)F)cn2)[nH]1)c1nc(CO)cs1` (racemic) [Compound 32, N-(1-Amino-2-(4-(hydroxymethyl)thiazol-2-yl)propan-2-yl)-5-(5-(trifluoromethyl)pyridin-2-yl)-1H-pyrrole-2-carboxamide]: greater than 14; for `NCC(NC(=O)c1ccc(-c2ccc(Cl)cn2)[nH]1)c1ncc(CO)s1` (stereo not shown) [Compound 2, N-(2-Amino-1-(5-(hydroxymethyl)thiazol-2-yl)ethyl)-5-(5-chloropyridin-2-yl)-1H-pyrrole-2-carboxamide]: 52; for `Cc1cc(-c2ccc(Cl)cn2)[nH]c1C(=O)NC(CN)c1ncc(CO)s1` (stereo not shown) [Compound 3, N-(2-Amino-1-(5-(hydroxymethyl)thiazol-2-yl)ethyl)-5-(5-chloropyridin-2-yl)-3-methyl-1H-pyrrole-2-carboxamide]: 81.9.
The same measure for `Cc1cc(-c2ccc(Cl)cn2)[nH]c1C(=O)NC(CN)c1ncc(CO)s1` (stereo not shown) [Compound 4, N-(2-Amino-1-(5-(hydroxymethyl)thiazol-2-yl)ethyl)-5-(5-chloropyridin-2-yl)-3-methyl-1H-pyrrole-2-carboxamide]: 39.6; for `NCC(NC(=O)c1ccc(-c2ccc(C(F)(F)F)cn2)[nH]1)c1ncc(CO)s1` (stereo not shown) [Compound 5, N-(2-Amino-1-(5-(hydroxymethyl)thiazol-2-yl)ethyl)-5-(5-(trifluoromethyl)pyridin-2-yl)-1H-pyrrole-2-carboxamide]: greater than 127; for `NCC(NC(=O)c1ccc(-c2ccc(C(F)(F)F)cn2)[nH]1)c1ncc(CO)s1` (stereo not shown) [Compound 6, N-(2-Amino-1-(5-(hydroxymethyl)thiazol-2-yl)ethyl)-5-(5-(trifluoromethyl)pyridin-2-yl)-1H-pyrrole-2-carboxamide]: 101.
The same measure for `Cc1cc(-c2ccc(C(F)(F)F)cn2)[nH]c1C(=O)NC(c1ncc(CO)s1)C(C)(C)N` (stereo not shown) [Compound 11, N-(2-Amino-1-(5-(hydroxymethyl)thiazol-2-yl)-2-methylpropyl)-3-methyl-5-(5-(trifluoro-methyl)pyridin-2-yl)-1H-pyrrole-2-carboxamide]: 59.
`Cc1cc(-c2ccc(C(F)(F)F)cn2)[nH]c1C(=O)NC(c1ncc(CO)s1)C(C)(C)N` (stereo not shown) [Compound 12, N-(2-Amino-1-(5-(hydroxymethyl)thiazol-2-yl)-2-methylpropyl)-3-methyl-5-(5-(trifluoro-methyl)pyridin-2-yl)-1H-pyrrole-2-carboxamide] had an SI of 87.
The same measure for `NCC(NC(=O)c1ccc(-c2ccc(C(F)(F)F)cn2)[nH]1)c1ncc(C(O)CO)s1` (stereo not shown) [Compound 13, N-(2-Amino-1-(5-(1,2-dihydroxyethyl)thiazol-2-yl)ethyl)-5-(5-(trifluoromethyl)pyridin-2-yl)-1H-pyrrole-2-carboxamide]: greater than 54.
The same measure for `NCC(NC(=O)c1ccc(-c2ccc(C(F)(F)F)cn2)[nH]1)c1ncc(C(O)CO)s1` (stereo not shown) [Compound 14, N-(2-Amino-1-(5-(1,2-dihydroxyethyl)thiazol-2-yl)ethyl)-5-(5-(trifluoromethyl)pyridin-2-yl)-1H-pyrrole-2-carboxamide]: greater than 19; for `NCC(NC(=O)c1ccc(-c2ccc(Cl)cn2)[nH]1)c1nc(CO)cs1` (stereo not shown) [Compound 15, N-(2-Amino-1-(4-(hydroxymethyl)thiazol-2-yl)ethyl)-5-(5-chloropyridin-2-yl)-1H-pyrrole-2-carboxamide]: greater than 26.
The same measure for `NCC(NC(=O)c1ccc(-c2ccc(Cl)cn2)[nH]1)c1nc(CO)cs1` (stereo not shown) [Compound 16, N-(2-Amino-1-(4-(hydroxymethyl)thiazol-2-yl)ethyl)-5-(5-chloropyridin-2-yl)-1H-pyrrole-2-carboxamide]: greater than 78.

Source of the values: patent US20230058961A1, “SUBSTITUTED HETEROCYCLICS WITH THERAPEUTIC ACTIVITY IN HIV” (New York Blood Center, Inc., priority 2019, published 2023).
